A mixed list of measured activities; the numbers were collected in NIAID ChemDB.

All rows: growth or infection tests; agent: HIV-1; read by: cytopathic effect / XTT; endpoint: EC50

Conditions beyond the fields shown may differ between rows.

compound,mutations,strain,cells,value
Cc1cn([C@H]2C[C@H](N=[N+]=[N-])[C@@H](CO)O2)c(=O)[nH]c1=O,,CLADE E,PBMC,0.003 µM
CC1=C(C(=O)Nc2ccc(Cl)c(C(=O)OC(C)C)c2)SCCO1,,IIIB,Macrophage,0.26 µM
O[C@@H]1[C@@H](O)[C@@H](OCc2ccccc2)[C@@H](Cc2ccccc2)S[C@H](Cc2ccccc2)[C@@H]1OCc1ccccc1,,IIIB,MT-2,2–10 µM
c1ccc2c(c1)sc1nccn12,,IIIB,CEM + CEM-SS,0.35 µM
Cc1cn([C@H]2C[C@H](N=[N+]=[N-])[C@@H](CO)O2)c(=O)[nH]c1=O,,MN,CEM + CEM-SS,0.001 µM
Cc1cc(C)cc([Se]c2c(C(C)C)c(=O)[nH]c(=S)n2COCc2ccccc2)c1,,RF,CEM + CEM-SS,0.054 µM
CN1CCCC(CCC2(CCC3CCCN(C)C3)C(=O)N(c3ccccc3)c3ccccc32)C1,,IIIB,MT-2,3.8 µM
CC(C)[C@H]1SCC[C@H]1OC(=O)N[C@@H](Cc1ccccc1)[C@H](O)CN1C[C@H]2CCS[C@H]2C[C@H]1C(=O)NC(C)(C)C,,HXB2,CEM + CEM-SS,<0.085 µM
Nc1nc(N)c2ncn([C@H]3CO[C@@H](CO)O3)c2n1,RT-K65R Q151M,,MT-2,200 µM
Cc1ccnc2c1NC(=O)c1cccnc1N2C1CC1,RT-Y181C,NL4-3,CEM + CEM-SS,1.3 µM
Nc1nc2c(ncn2[C@H]2CO[C@@H](CO)O2)c(=O)[nH]1,RT-F116Y Q151M T215Y,,MT-2,20 µM
O=S1(c2cccc(Cl)c2)=NC(=S)Nc2ccc(Cl)cc21,,IIIB,MT-2,0.03 µM
O=C(c1ccccc1)N1CCC(CC2C(=O)N(c3ccccc3)c3ccccc32)CC1,,IIIB,MT-2,1.3 µM
CCOCn1c([Se]c2cc(F)cc(F)c2)c(C(C)C)c(=O)[nH]c1=O,,RF,CEM + CEM-SS,0.019 µM
CC(C)[C@@H]1[C@H](OC(=O)N[C@@H](Cc2ccccc2)[C@H](O)CN2C[C@H]3CCS[C@H]3C[C@H]2C(=O)NC(C)(C)C)CCS1(=O)=O,,HXB2,CEM + CEM-SS,<0.038 µM
Cc1ccc(C[C@@H](O)[C@H](Cc2ccccc2)NC(=O)[C@H](CC(N)=O)NC(=O)c2ccc3ccccc3n2)c(C(=O)NC(C)(C)C)c1,,RF,CEM + CEM-SS,0.02 µM
Nc1cccc(CO[C@@H]2[C@H](O)[C@@H](O)[C@@H](OCc3cccc(N)c3)[C@@H](Cc3ccccc3)S(=O)(=O)[C@@H]2Cc2ccccc2)c1,,IIIB,MT-2,<2 µM
CC(C)[C@@H]1[C@H](OC(=O)N[C@@H](CSc2ccccc2)[C@H](O)CN2C[C@H]3CCS[C@H]3C[C@H]2C(=O)NC(C)(C)C)CCS1(=O)=O,,HXB2,CEM + CEM-SS,<0.009 µM
Cc1cn([C@H]2C[C@H](N=[N+]=[N-])[C@@H](CO)O2)c(=O)[nH]c1=O,RT-K65R Y115F M184V,Site-directed mutant,MT-2,0.196 µM
O=S1(=O)[C@H](Cc2ccccc2)[C@H](OCc2ccccc2)[C@H](O)[C@@H](O)[C@H](OCc2ccccc2)[C@H]1Cc1ccccc1,,IIIB,MT-2,<2 µM
C[C@H]1[C@H](OC(=O)N[C@@H](CSc2ccccc2)[C@H](O)CN2C[C@H]3CCS[C@H]3C[C@H]2C(=O)NC(C)(C)C)CCS1(=O)=O,,HXB2,CEM + CEM-SS,<0.044 µM
Cc1cn([C@H]2C[C@H](N=[N+]=[N-])[C@@H](CO)O2)c(=O)[nH]c1=O,,SKI,CEM + CEM-SS,0.0018 µM
O=[N+]([O-])c1ccccc1S(=O)(=O)c1ccccc1,,IIIB,U-937,7.98 µM
Cc1nc(CO[C@@H]2[C@H](O)[C@@H](O)[C@@H](OCc3csc(C)n3)[C@@H](Cc3ccccc3)S(=O)(=O)[C@@H]2Cc2ccccc2)cs1,,IIIB,MT-2,10–50 µM
CC(C)C[C@H](NC(=O)[C@@H](N)CO)C(=O)N[C@@H](CC(N)=O)C(=O)N[C@@H](Cc1ccccc1)B(O)O,,RF,CEM + CEM-SS,>82 µM
Nc1ncnc2c1ncn2[C@H]1CC[C@@H](CO)O1,,IIIB,MT-2,<2 µM
CCc1c(Sc2ccccn2)n(COCc2ccccc2)c(=O)[nH]c1=O,RT-K103N Y181C,IIIB,CEM + CEM-SS,>13.6 µM
Cc1cn([C@H]2C[C@H](N=[N+]=[N-])[C@@H](CO)O2)c(=O)[nH]c1=O,,G691-2,CEM + CEM-SS,>100 µM
CCCc1cc(=O)oc2c3c(c4c(c12)OC(C)(C)C=C4)O[C@@H](C)[C@H](C)[C@@H]3O,,RF,CEM + CEM-SS,0.7 µM
CC(C)(C)NC(=O)c1cc2ccccc2cc1C[C@@H](O)[C@H](Cc1ccccc1)NC(=O)[C@H](CC(N)=O)NC(=O)c1ccc2ccccc2n1,,RF,CEM + CEM-SS,0.98 µM
CC(C)c1c([Se]c2ccccc2)n(COCc2ccccc2)c(=O)[nH]c1=O,,RF,CEM + CEM-SS,0.013 µM
O=S1(c2ccccc2)=NC(=S)Nc2ccccc21,,McK,CEM + CEM-SS,1.68 µM
Fc1cccc(F)c1C1SCc2nc3ccccc3n21,,205,CEM + CEM-SS,0.9 µM
Cc1ccnc2c1NC(=O)c1cccnc1N2C1CC1,,IIIB,AA5,0.7 µM
CCOC(=O)N1CCC(CC2C(=O)N(c3ccccc3)c3ccccc32)CC1,,IIIB,MT-2,2.6 µM
Fc1cccc(F)c1C1SCc2nc3ccccc3n21,RT-Y181C,UC38-R(RT-Y181C,CEM + CEM-SS,4.7 µM
O=S1[C@H](Cc2ccccc2)[C@H](OCc2ccccc2)[C@H](O)[C@@H](O)[C@@H](OCc2ccccc2)[C@@H]1Cc1ccccc1,,IIIB,MT-2,2–10 µM
Cn1cc(N)cc1C(=O)Nc1cc(C(=O)Nc2ccc3cc(S(=O)(=O)O)cc(S(=O)(=O)O)c3c2)n(C)c1,,IIIB,CEM + CEM-SS,10.7 µM
O=C1N(c2ccccc2)c2ccccc2C1(CC1=CCN(CC2CC2)CC1)CC1=CCN(CC2CC2)CC1,,IIIB,MT-2,5.1 µM
CC(C)=CCN1Cc2cccc3[nH]c(=S)n(c23)C[C@@H]1C,,IIIB,Macrophage,0.1 µM
Cc1cn([C@H]2C[C@H](N=[N+]=[N-])[C@@H](CO)O2)c(=O)[nH]c1=O,RT-Y188C,NL4-3,CEM + CEM-SS,0.006 µM
CN1CCC(CC2(CC3CCN(C)CC3)C(=O)N(c3ccccc3)c3ccccc32)CC1,,IIIB,MT-2,10.9 µM
Cc1cn([C@H]2C[C@H](N=[N+]=[N-])[C@@H](CO)O2)c(=O)[nH]c1=O,RT-Y181C,NL4-3,CEM + CEM-SS,0.01 µM
O=S1(=O)[C@H](Cc2ccccc2)[C@H](OCc2ccccn2)[C@H](O)[C@@H](O)[C@@H](OCc2ccccn2)[C@H]1Cc1ccccc1,,IIIB,MT-2,2–10 µM
CCOP(=O)(OCC)c1cc(NC(=O)c2cc(NC(=O)c3cc(NC(=O)Nc4cc(C(=O)Nc5cc(C(=O)Nc6cc(P(=O)(OCC)OCC)c7cccc(P(=O)(OCC)OCC)c7c6)n(C)c5)n(C)c4)cn3C)cn2C)cc2c(P(=O)(OCC)OCC)cccc12,,RF,CEM + CEM-SS,>200 µM
Cc1c(Sc2ccccc2)n(COCCO)c(=O)[nH]c1=O,RT-K103N Y181C,IIIB,CEM + CEM-SS,>325 µM
Nc1ccc(CC2(Cc3ccncc3)C(=O)N(c3ccccc3)c3ccccc32)cc1,,IIIB,MT-2,21.5 µM
C[C@@H]1[C@H](OC(=O)N[C@@H](CSc2ccccc2)[C@H](O)CN2C[C@H]3CCS[C@H]3C[C@H]2C(=O)NC(C)(C)C)CCS1(=O)=O,,HXB2,CEM + CEM-SS,<0.019 µM
C[C@H](Cn1cnc2c(N)ncnc21)OCP(=O)(O)O,RT-K65R Y115F,Site-directed mutant,MT-2,21.24 µM
Cc1ccc2c(c1)C(CC1CCN(C)CC1)(CC1CCN(C)CC1)c1ccccc1-2,,IIIB,MT-2,0.8 µM
CCc1c([Se]c2cc(C)cc(C)c2)n(COCc2ccccc2)c(=S)[nH]c1=O,,RF,CEM + CEM-SS,0.016 µM
O=[N+]([O-])c1ccc(CO[C@@H]2[C@H](O)[C@@H](O)[C@@H](OCc3ccc([N+](=O)[O-])cc3)[C@@H](Cc3ccccc3)S(=O)(=O)[C@@H]2Cc2ccccc2)cc1,,IIIB,MT-2,<2 µM
CCc1c(C(=O)c2cc(C)cc(C)c2)n(CC2CC=CC2)c(=O)[nH]c1=O,,RF,CEM + CEM-SS,0.001 µM
C[C@@H]1[C@H](OC(=O)N[C@@H](Cc2ccccc2)[C@H](O)CN2C[C@H]3CCCC[C@H]3C[C@H]2C(=O)NC(C)(C)C)CCS1(=O)=O,,HXB2,CEM + CEM-SS,<0.171 µM

5 of the rows above, restated:

compound	mutations	strain	cells	value
O=S1(=O)[C@H](Cc2ccccc2)[C@H](OCc2ccccc2)[C@H](O)[C@@H](O)[C@H](OCc2ccccc2)[C@H]1Cc1ccccc1		IIIB	MT-2	<2 µM
Cc1cn([C@H]2C[C@H](N=[N+]=[N-])[C@@H](CO)O2)c(=O)[nH]c1=O		CLADE E	PBMC	0.003 µM
O=S1[C@H](Cc2ccccc2)[C@H](OCc2ccccc2)[C@H](O)[C@@H](O)[C@@H](OCc2ccccc2)[C@@H]1Cc1ccccc1		IIIB	MT-2	2–10 µM
O=S1(c2cccc(Cl)c2)=NC(=S)Nc2ccc(Cl)cc21		IIIB	MT-2	0.03 µM
CN1CCCC(CCC2(CCC3CCCN(C)C3)C(=O)N(c3ccccc3)c3ccccc32)C1		IIIB	MT-2	3.8 µM

Two numbers with a dash give a range or band. Blank or dashed fields: not listed here. ECn is the concentration giving n% inhibition of infection, replication or growth.